## Deep mutational scan of the Zika virus protease

Protein: NS2B and the protease part of NS3 of Zika virus strain MR766. Positions count along the chain below; NS2B spans 2-131 and NS3 starts at 132.
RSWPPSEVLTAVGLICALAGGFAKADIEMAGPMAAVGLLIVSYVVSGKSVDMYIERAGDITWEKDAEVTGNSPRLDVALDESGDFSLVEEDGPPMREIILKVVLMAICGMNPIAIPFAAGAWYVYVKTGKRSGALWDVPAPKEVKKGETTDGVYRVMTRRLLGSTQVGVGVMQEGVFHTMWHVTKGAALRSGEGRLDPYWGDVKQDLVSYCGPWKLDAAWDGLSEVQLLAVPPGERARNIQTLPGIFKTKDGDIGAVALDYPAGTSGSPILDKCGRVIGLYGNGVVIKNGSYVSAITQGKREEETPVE

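Pools of virus carrying all single amino acid changes were selected for growth in Huh-7.5 cells. Sequencing of three replicate libraries (two for positions 207-308) was averaged into one effect per change. The study looked for pockets that tolerate few changes, as a guide for inhibitor design.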

The number is log2 of the effect relative to wild type; negative values mean reduced growth, higher values better tolerance. Substitutions are written as wild-type residue, site number, new residue. Stop codons (*) centre on -7 and mark the level of dead virus. The authors count -1 or higher as tolerated. Position 1 is the last residue of NS2A. Six mutants with high scores were retested singly and none clearly outgrew wild type, so positive values are not proof of better growth. Positions 1-103, 104-206 and 207-308 were made and measured as separate libraries.

mutation | effect (log2)
A258* | -6.80
A258C | -5.31
A258D | -3.93
A258E | -5.27
A258F | -5.60
A258G | -6.75
A258H | -4.97
A258I | -5.32
A258K | -5.08
A258L | -6.70
A258M | -5.13
A258N | -5.26
A258P | -6.64
A258Q | -5.01
A258R | -6.58
A258S | -7.31
A258T | -6.73
A258V | -6.14
A258W | -5.13
A258Y | -5.53
L259* | -7.57
L259A | -6.09
L259C | -4.91
L259D | -4.63
L259E | -5.16
L259F | -4.93
L259G | -5.34
L259H | -5.59
L259I | 0.81
L259K | -5.27
L259M | -5.62
L259N | -5.03
L259P | -5.92
L259Q | -5.40
L259R | -6.93
L259S | -6.77
L259T | -6.00
L259V | -2.67
L259W | -5.32
L259Y | -5.20
D260* | -6.39
D260A | -5.83
D260C | -4.90
D260E | -5.50
D260F | -4.90
D260G | -5.96
D260H | -4.09
D260I | -4.20
D260K | -4.14
D260L | -5.93
D260M | -4.27
D260N | -4.23
D260P | -4.71
D260Q | -2.78
D260R | -5.07
D260S | -5.85
D260T | -5.36
D260V | -5.81
D260W | -4.75
D260Y | -4.86
Y261* | -7.07
Y261A | -3.03
Y261C | 1.61
Y261D | -3.59
Y261E | 0.96
Y261F | -0.46
Y261G | -4.18
Y261H | -4.51
Y261I | -4.67
Y261K | -4.27
Y261L | -0.15
Y261M | -0.66
Y261N | -3.60
Y261P | -4.45
Y261Q | -1.18
Y261R | -4.23
Y261S | -3.82
Y261T | -5.03
Y261V | -5.00
Y261W | -2.10
P262* | -6.04
P262A | -5.41
P262C | -3.79
P262D | -4.46
P262E | -4.10
P262F | -4.45
P262G | -5.17
P262H | -5.91
P262I | -4.65
P262K | -3.74
P262L | -4.88
P262M | -4.68
P262N | -4.55
P262Q | -3.90
P262R | -5.98
P262S | -4.63
P262T | -5.96
P262V | -5.43
P262W | -4.49
P262Y | -4.55
A263* | -7.33
A263C | 1.10
A263D | -5.98
A263E | -5.37
A263F | -5.96
A263G | -2.05
A263H | -4.94
A263I | -5.52
A263K | -5.42
A263L | -6.02
A263M | -3.37
A263N | -2.41
A263P | -0.22
A263Q | -1.47
A263R | -6.60
A263S | -1.31
A263T | -6.44
A263V | -6.99
A263W | -5.22
A263Y | -5.58
G264* | -7.26
G264A | -6.24
G264C | -4.70
G264D | -4.42
G264E | -5.44
G264F | -4.91
G264H | -3.97
G264I | -4.45
G264K | -5.47
G264L | -6.82
G264M | -5.19
G264N | -4.20
G264P | -5.94
G264Q | -5.56
G264R | -7.03
G264S | -6.19
G264T | -5.94
G264V | -6.76
G264W | -6.22
G264Y | -4.01

Excerpt, the final 19 entries:

| mutation | effect (log2) |
|---|---|
| G264A | -6.24 |
| G264C | -4.70 |
| G264D | -4.42 |
| G264E | -5.44 |
| G264F | -4.91 |
| G264H | -3.97 |
| G264I | -4.45 |
| G264K | -5.47 |
| G264L | -6.82 |
| G264M | -5.19 |
| G264N | -4.20 |
| G264P | -5.94 |
| G264Q | -5.56 |
| G264R | -7.03 |
| G264S | -6.19 |
| G264T | -5.94 |
| G264V | -6.76 |
| G264W | -6.22 |
| G264Y | -4.01 |

Values reported by Ni et al. 2025 (doi:10.1038/s41467-025-63602-z).